A mixed list of measured activities; the numbers were collected in NIAID ChemDB.

Common to all: toxicity to cultured cells; cells: MT-4; read-out: CC50

CCn: concentration that lowers growth or viability of the cells by n%.

structure	read by	value
CCN(C)C(=O)Oc1nsnc1-c1c(Cl)cccc1Cl	-	29 µM
Nc1ncnc2c1ncn2[C@@H]1OC[C@H](CCP(=O)(O)O)[C@H]1F	MTT	80 µM
O=c1[nH]cnc2c1ncn2[C@H]1CC[C@@H](CO)O1	trypan blue	>500 µM
CCCCCCCSc1nsc(NC(=O)Nc2ccccc2)n1	-	120.6 µM
COc1ccc(OP(=O)(OC[C@H]2O[C@@H](n3cc(C)c(=O)[nH]c3=O)C[C@@H]2N=[N+]=[N-])C(O)c2cccnc2)cc1	MTT	27 µM
Cc1c(C(C)c2c(Cl)cccc2Cl)nc(SCc2ccc([N+](=O)[O-])cc2)[nH]c1=O	-	>11.11 µM
Cc1cccc(Cc2cc(=O)[nH]c(OC3CCCCC3)n2)c1	-	>335 µM
CN(C)C(=O)Oc1nsnc1-c1ccc(Cl)c(Cl)c1	-	315 µM
COc1cc(NC2=NS(=O)(=O)NC(Cc3ccc4ccccc4c3)=C2)cc(OC)c1OC	MTT	204 µM
Cc1cc(NC(=S)c2ccccc2)ccc1N1C(=O)c2ccc(Cl)cc2C1=O	MTT / absorbance	1.222 µM
O=S1(=O)N=C(Nc2cccc(Cl)c2)C=C(Cc2ccccc2)N1	MTT	189 µM
C1CNCCNCC(C2CNCCNCCCNCCNC2)CNCCNC1	-	54 µg/mL
CC(=S)Nc1ccc(N2C(=O)c3ccc(Cl)cc3C2=O)c(C)c1	MTT / absorbance	0.164 µM
Nc1nc2c(ncn2[C@@H]2OC[C@H](/C=C/P(=O)(O)O)[C@H]2F)c(=O)[nH]1	MTT	98 µM
COc1cc(C)c(C(=O)O)c(O)c1C/C=C(\C)CC/C=C(\C)CCC=C(C)C	-	53 µM
C=C(C)[C@@H]1CC[C@]2(CCO)CC[C@]3(C)C(CCC4[C@@]5(C)CC/C(=C\O)C(C)(C)C5CC[C@]43C)C12	MTT	>200 µM
Cc1cn([C@H]2C[C@H](N=[N+]=[N-])[C@@H](COP(=O)(Oc3ccccc3)C(O)c3cccnc3)O2)c(=O)[nH]c1=O	MTT	>100 µM
CN(C)C(=O)Oc1nsnc1-c1ccccc1Cl	-	162 µM
Cc1cc(NC(=S)Cc2ccc3ccccc3c2)ccc1N1C(=O)c2ccc(Cl)cc2C1=O	MTT / absorbance	0.415 µM
O=S1(=O)N=C(Nc2ccc(F)c(F)c2)C=C(Cc2ccccc2)N1	MTT	250 µM
Cc1cn([C@H]2C[C@H](N=[N+]=[N-])[C@@H](COP(=O)(Oc3ccccc3)C(O)c3ccc(Cl)cc3)O2)c(=O)[nH]c1=O	MTT	50 µM
CC(=O)[C@]12CCC(C)(C)C=C1C1=CCC3[C@@]4(C)CCC(=O)C(C)(C)C4[C@H](O)C[C@@]3(C)[C@]1(C)CC2	MTT	36.37 µM
COc1ccc(C#CCSc2nc(C(C)c3c(Cl)cccc3Cl)c(C)c(=O)[nH]2)cc1	-	>54.47 µM
Nc1ncnc2c1ncn2[C@H]1CC[C@@H](CO)O1	trypan blue	>500 µM
COc1ccc(NC2=NS(=O)(=O)NC(Cc3ccccc3)=C2)cc1	MTT	318 µM
Cc1cccc(Cc2cc(=O)[nH]c(=O)[nH]2)c1	-	>463 µM
Cc1cn([C@H]2C=C[C@@H](COP(=O)(OC[C@@H]3C=C[C@H](n4cc(C)c(=O)[nH]c4=O)O3)Oc3ccc(S(C)(=O)=O)cc3)O2)c(=O)[nH]c1=O	trypan blue	>250 µM
COP(=O)(OC[C@H]1O[C@@H](n2cc(C)c(=O)[nH]c2=O)C[C@@H]1N=[N+]=[N-])C(N)=O	MTT	103 µM
CC(C)=CCc1c(O)cc(O)c2c1O[C@H](c1ccc(O)cc1)CC2=O	-	95 µg/mL
COc1ccc2c(c1)c(CC(=O)O)c(C)n2C(=O)c1ccc(Cl)cc1	-	>1000 µM
Cn1ncc2c1S(=O)(=O)N(Cc1cccc(Cl)c1)C(=O)N2CC#N	MTT	201.3 µM
Cc1cn([C@H]2C=C[C@H](CO)O2)c(=O)[nH]c1=O	-	10 µM
CSc1ccc(OP(=O)(OC[C@@H]2C=C[C@H](n3cnc4c(=O)[nH]cnc43)O2)OC[C@@H]2C=C[C@H](n3cnc4c(=O)[nH]cnc43)O2)cc1	trypan blue	>250 µM
Cn1ncc2c1S(=O)(=O)N(Cc1cccc(Cl)c1)C(=O)N2Cc1ccccc1C#N	MTT	233.3 µM
CCCCCCN(C)C(=O)Oc1nsnc1-c1c(Cl)cccc1Cl	-	19 µM
COc1ccccc1NC1=NS(=O)(=O)NC(Cc2ccccc2)=C1	MTT	268 µM
CC(C)=CCC/C(C)=C/Cc1c(O)cc2c(c1O)C(=O)C[C@@H](c1c(O)cc(O)cc1O)O2	-	113 µg/mL
CCCCN(C)C(=O)Oc1nsnc1-c1c(Cl)cccc1Cl	-	23 µM
Cc1c(C(C)c2c(Cl)cccc2Cl)nc(SCc2ccc(C#N)cc2)[nH]c1=O	-	>11.63 µM
Cn1ncc2c1S(=O)(=O)N(Cc1cccc(Cl)c1)C(=O)N2Cc1ccccc1	MTT	>300.1 µM
NS(=O)(=O)c1ccc(NC2=NS(=O)(=O)NC(Cc3ccccc3)=C2)cc1	MTT	>318 µM
CCc1c(C(C)c2c(F)cccc2F)nc(SC/C=C/c2ccc(OC)cc2)[nH]c1=O	-	5.54 µM
COc1ccc(C(O)P(=O)(OC[C@H]2O[C@@H](n3ccc(=O)[nH]c3=O)C[C@@H]2N=[N+]=[N-])Oc2ccccc2)cc1	MTT	>100 µM
Cc1ccc(C(=S)Nc2ccc(N3C(=O)c4ccc(Cl)cc4C3=O)c(C)c2)cc1	MTT / absorbance	0.409 µM
Cc1c(Cc2c(Cl)cccc2Cl)nc(SC/C=C/c2ccc(N(C)C)cc2)[nH]c1=O	-	>54.35 µM
CSc1ccc(OP(=O)(OC[C@@H]2CC[C@H](n3cnc4c(=O)[nH]cnc43)O2)OC[C@@H]2CC[C@H](n3cnc4c(=O)[nH]cnc43)O2)cc1	trypan blue	>250 µM
Cc1ccnc2c1NC(=O)c1cccnc1N2C1CC1	-	235 µM
CS(=O)(=O)c1ccc(OP(=O)(OC[C@@H]2CC[C@H](n3ccc(=O)[nH]c3=O)O2)OC[C@@H]2CC[C@H](n3ccc(=O)[nH]c3=O)O2)cc1	trypan blue	>250 µM
Cc1cn([C@H]2C[C@H](N=[N+]=[N-])[C@@H](COP(=O)(Oc3ccccc3)C(O)c3ccccc3)O2)c(=O)[nH]c1=O	MTT	49 µM
CSc1ccc(OP(=O)(OC[C@@H]2C=C[C@H](n3cc(C)c(=O)[nH]c3=O)O2)OC[C@@H]2C=C[C@H](n3cc(C)c(=O)[nH]c3=O)O2)cc1	trypan blue	>250 µM
Cc1cn([C@H]2C[C@H](N=[N+]=[N-])[C@@H](COP(=O)(O)C(O)c3cccnc3)O2)c(=O)[nH]c1=O	MTT	>100 µM
CC(C)=CCc1c(O)cc2c(c1O)C(=O)C[C@@H](c1ccc(O)cc1)O2	-	125 µg/mL
Cc1ccnc2c1NC(=O)c1cccnc1N2C1CC1	MTT	683 µM
C1CNCCNCCCN[C@@H]([C@H]2CNCCCNCCNCCCN2)CNC1	-	172 µg/mL
CN1C(=O)c2cccn2S(=O)(=O)c2ccccc21	-	300 µM
Cc1cn([C@@H]2O[C@@H](CO)C[C@@H]2O)c(=O)[nH]c1=O	-	>1000 µM
CCC(C)Oc1nc(Cc2cccc(C)c2)cc(=O)[nH]1	-	>367 µM
Cc1cc(NC2=NS(=O)(=O)NC(Cc3ccccc3)=C2)ccc1Cl	MTT	179 µM
CCc1c(Cc2c(Cl)cccc2Cl)nc(SCCc2ccc(OC)cc2)[nH]c1=O	-	>11.13 µM
CCCOP(=O)(OC[C@H]1O[C@@H](n2cc(C)c(=O)[nH]c2=O)C[C@@H]1N=[N+]=[N-])C(N)=O	MTT	48 µM
Cc1cn(C2C[C@H](N)[C@H](CO)O2)c(=O)[nH]c1=O	-	>1000 µM
CSc1nc2c(c(=O)[nH]1)C(c1ccc([N+](=O)[O-])cc1)c1c(nc(SC)[nH]c1=O)O2	-	188.9 µM
CCCN1C(=O)c2cccn2S(=O)(=O)c2ccc(Cl)cc21	-	>300 µM
O=c1[nH]c2c(c(=O)[nH]1)C(c1ccccc1)c1c([nH]c(=O)[nH]c1=O)O2	-	>383 µM
COc1cc([C@@H]2c3cc(O)c(OC)cc3C[C@@H](CO)[C@@H]2CO)ccc1O	MTT	>200 µM
CC(C)(C)C(=O)SCCOP(=O)(COCCn1cnc2c(N)ncnc21)OCCSC(=O)C(C)(C)C	MTT	>10 µM
COc1nc(=O)[nH]c2c1C(c1ccc(Cl)cc1)c1c(OC)nc(=O)[nH]c1O2	-	>347 µM
Cn1ncc2c1S(=O)(=O)N(Cc1cccc(Cl)c1)C(=O)N2Cc1ccc(Cl)cc1Cl	MTT	>257.5 µM
COc1ccccc1NC1=NS(=O)(=O)NC(Cc2cccc3ccccc23)=C1	MTT	161 µM
CC(C)N1C(=O)c2cccn2S(=O)(=O)c2ccc(Cl)cc21	-	>300 µM
CCOP(=O)(OC[C@H]1O[C@@H](n2cc(C)c(=O)[nH]c2=O)C[C@@H]1N=[N+]=[N-])C(=O)N1CCOCC1	MTT	127 µM
C/C=C/CN1C(=O)c2cccn2S(=O)(=O)c2ccc(Cl)cc21	-	300 µM
COC(O)c1cc(O)c(O)c(O)c1	MTT	25.15 µM
Cc1cn([C@@H]2O[C@@H](CO)[C@@H](N)[C@H]2O)c(=O)[nH]c1=O	-	>1000 µM
CCC(C)C(=O)O[C@@]12[C@H](OC(C)=O)[C@@H](C)[C@]3(O)[C@@H]4C=C(C)C(=O)[C@H]4CC(CO)=C[C@H]3[C@@H]1C2(C)C	MTT	57 µM
CC(C)=CCC/C(C)=C/CC/C(C)=C/Cc1c(O)cc(C)cc1O	-	38 µM
CCOC(=O)P(=O)(OC[C@H]1O[C@@H](n2cc(C)c(=O)[nH]c2=O)C[C@@H]1N=[N+]=[N-])OC12CC3CC(CC(C3)C1)C2	MTT	195.5 µM
COc1cc(OC)cc(OC2O[C@H](CO)[C@@H](O)[C@H](O)[C@H]2O)c1	MTT	>200 µM
Clc1nc(Cl)c2c(n1)Oc1nc(Cl)nc(Cl)c1C2c1ccccc1	-	17.5 µM
COc1ccc(C=Nc2ccc(N3C(=O)c4ccc(Cl)cc4C3=O)c(C)c2)cc1	MTT / absorbance	0.309 µM
CCc1c(Cc2c(F)cccc2F)nc(SCCc2ccc(OC)cc2)[nH]c1=O	-	>60.1 µM
CCOC(=O)P(=O)(OC[C@H]1O[C@@H](n2cc(C)c(=O)[nH]c2=O)C[C@@H]1N=[N+]=[N-])OC1CCCCC1	MTT	37.1 µM
CC(=O)Oc1ccccc1C(=O)O	-	>1000 µM

For reference, 8 entries again:

{"structure": "Cc1cccc(Cc2cc(=O)[nH]c(=O)[nH]2)c1", "value": ">463 µM"}
{"structure": "Cc1cn([C@H]2C=C[C@H](CO)O2)c(=O)[nH]c1=O", "value": "10 µM"}
{"structure": "CS(=O)(=O)c1ccc(OP(=O)(OC[C@@H]2CC[C@H](n3ccc(=O)[nH]c3=O)O2)OC[C@@H]2CC[C@H](n3ccc(=O)[nH]c3=O)O2)cc1", "read by": "trypan blue", "value": ">250 µM"}
{"structure": "COc1nc(=O)[nH]c2c1C(c1ccc(Cl)cc1)c1c(OC)nc(=O)[nH]c1O2", "value": ">347 µM"}
{"structure": "CSc1ccc(OP(=O)(OC[C@@H]2C=C[C@H](n3cnc4c(=O)[nH]cnc43)O2)OC[C@@H]2C=C[C@H](n3cnc4c(=O)[nH]cnc43)O2)cc1", "read by": "trypan blue", "value": ">250 µM"}
{"structure": "Clc1nc(Cl)c2c(n1)Oc1nc(Cl)nc(Cl)c1C2c1ccccc1", "value": "17.5 µM"}
{"structure": "Cc1cn([C@H]2C=C[C@@H](COP(=O)(OC[C@@H]3C=C[C@H](n4cc(C)c(=O)[nH]c4=O)O3)Oc3ccc(S(C)(=O)=O)cc3)O2)c(=O)[nH]c1=O", "read by": "trypan blue", "value": ">250 µM"}
{"structure": "Cc1cn(C2C[C@H](N)[C@H](CO)O2)c(=O)[nH]c1=O", "value": ">1000 µM"}

Rows are shuffled and stem from different studies. An empty or dashed field is not shown.